Anti-infective test results gathered from many reports (values: NIAID ChemDB through PubChem).

Common to all: growth or infection tests; species: Mycobacterium tuberculosis

ECn is the concentration giving n% inhibition of infection, replication or growth.

smiles,strain or isolate,read by,endpoint,dose,value
C=CCNc1nc(N)nc(OC)n1,H37Rv,-,MIC,-,>100 µg/mL
NC(=O)C(=O)CC(=O)c1ccccc1NC1=CC(=O)C(=O)c2ccccc21,H37Rv,resazurin,MIC bound,-,<6.25 µg/mL
Nc1ccc(O)c(C(=O)/C=C/c2ccccc2)c1,H37Rv,-,EC50,-,>12.5 µg/mL
COc1c2c(cc3c1C1Oc4c(ccc(O)c4CC=C(C)C)C1CO3)OC(C)(C)C=C2,H37Rv,BACTEC,MIC,-,≥12.5 µg/mL
COc1ccc(CNCCNCC23CC4CC(CC(C4)C2)C3)cc1OC,-,-,MIC,-,50 µM
CC(C)=CCC/C(C)=C/CNCCNC1CCCCCCC1,-,-,MIC,-,25 µM
O=C(CC(=O)N1N=C(N(c2ccccc2)c2ccccc2)CC1c1ccccc1)Nc1ccccc1Cl,H37Rv,BACTEC,MIC bound,-,>12.5 µg/mL
Cc1ccc2ccc(-c3ccc(N(C)C)cc3)nc2c1,H37Rv,-,MIC,-,>100 µg/mL
CO[C@H]1/C=C/O[C@@]2(C)Oc3c(C)c(O)c4c(=O)c(c5oc6cc(N7CCN(CC(C)C)CC7)cc(=O)c6nc5c4c3=C2O)NC(=O)/C(C)=C\C=C\[C@H](C)[C@H](O)[C@@H](C)[C@@H](O)[C@@H](C)[C@H](OC(C)=O)[C@@H]1C,2831 (rifampin-sensitive),-,MBC,-,0.012 µg/mL
CC(Oc1ccc(C(C)(C)C)cc1)C(=O)Nc1ccc(NC(=O)CC(=O)c2ccccc2)cc1,H37Rv,-,MIC,-,50 µg/mL
O=C1CCCCCCCCCCCCCCO1,H37Rv,BACTEC,MIC,-,≥12.5 µg/mL
C#Cc1ccccc1,H37Rv,-,MIC,-,>100 µg/mL
CC(C)c1ccc2c(c1)CC[C@H]1[C@](C)(CNCCNC[C@@H]3CC[C@H]4C[C@@H]3C4(C)C)CCC[C@]21C,-,-,MIC,-,50 µM
c1ccc2c(c1)nc1cc(NC3CCCCC3)c(=NC3CCCCC3)cc-1n2C1CCCCC1,H37Rv,BACTEC,MIC bound,-,≤12.5 µg/mL
CCCCCCCCCCCNCCNCc1ccccc1OCC,-,-,MIC,-,25 µM
Cl.N=C1C=C(N)C(=O)c2ccccc21,H37Rv,-,MIC,-,100 µg/mL
Fc1ccc(CNCCNCc2ccco2)cc1,-,-,MIC,-,50 µM
O=Nn1c2ccccc2c2cc([N+](=O)[O-])ccc21,H37Rv,-,MIC,-,100 µg/mL
CC1(C)[C@H]2CC[C@@H](CNCCNCC34CC5CC(CC(C5)C3)C4)[C@@H]1C2,-,-,MIC,-,3.13 µM
C=C(CC(=O)O)C(=O)O,H37Rv,-,MIC,-,>100 µg/mL
[O-]N(O)O.c1c(N2CCOCC2)ssc1=[N+]1CCOCC1,H37Rv,BACTEC,inhibition,12.5 µg/mL,0%
COc1ccccc1CCNCCNC(C)(C)CC(C)(C)C,-,-,MIC,-,50 µM
NCCn1[nH]c(=O)c2ccncc2c1=O,H37Rv,BACTEC,MIC bound,-,>12.5 µg/mL
CC(=O)Nc1ccc(N(CC(=O)O)CC(=O)O)cc1,H37Rv,-,MIC,-,>100 µg/mL
Cn1c2cc3ccccc3cc2nc2cc3c(cc21)c(Cl)c(=O)c1ccccc13,H37Rv,BACTEC,inhibition,12.5 µg/mL,6%
CNc1cccc2c1C(=O)c1ccccc1C2=O,H37Rv,-,MIC,-,100 µg/mL
O=C(/C=C/c1ccccc1)c1ccco1,H37Rv,-,EC50,-,<12.5 µg/mL
CO[C@H]1/C=C/O[C@@]2(C)Oc3c(C)c(O)c4c(O)c(c5c(c4c3C2=O)NC2(CCN(CC(C)C)CC2)N=5)=NC(=O)/C(C)=C\C=C\[C@H](C)[C@H](O)[C@@H](C)[C@@H](O)[C@@H](C)[C@H](OC(C)=O)[C@@H]1C,2983 (rifampin-sensitive),-,MBC,-,0.05 µg/mL
CCN(CC)CCC(C(N)=O)c1ccccc1,H37Rv,-,MIC,-,>100 µg/mL
CCCCC(CC)CN1CN(CC(CC)CCCC)CC(C)(NCCNCc2ccccc2F)C1,-,-,MIC,-,12.5 µM
O=C(/C=C/c1ccccc1I)c1ccccc1O,-,-,EC50,-,>12.5 µg/mL
O=C(O)c1ccc2c(c1)C(=O)c1ccccc1C2=O,H37Rv,-,MIC,-,<0.63 µg/mL
O=C1OCCSCCOCCSCCOC(=O)c2cncc1c2,H37Rv,BACTEC,inhibition,12.5 µg/mL,-19%
COC(=O)c1cc(O)ccc1O,H37Rv,-,MIC,-,>100 µg/mL
CC1=CC2c3c([nH]c(=S)[nH]c3=O)OC(C)(C)C2CC1,H37Rv,BACTEC,inhibition,12.5 µg/mL,-26%
O=C1CCCN1CCCNCCNCc1ccccc1Sc1ccccc1CO,-,-,MIC,-,12.5 µM
[N-]=[N+]=Nc1nn2cnnc2c2[nH]c3ccccc3c12,H37Rv,resazurin,inhibition,6.25 µg/mL,35%
CCCCCCCCCCCNCCNCCCOCC,-,-,MIC,-,25 µM
O=C1CC(c2ccccc2)Oc2c(I)cccc21,H37Rv,-,EC50,-,>12.5 µg/mL
Cc1ccc(Nc2ccc(Nc3ccc(C)cc3S(=O)(=O)O)c3c2C(=O)c2ccccc2C3=O)c(S(=O)(=O)O)c1,H37Rv,-,MIC,-,>100 µg/mL
COc1ccc(OC)c(CCNCCNCCCCCO)c1,-,-,MIC,-,12.5 µM
CC1(N2C(=O)OC(c3ccccc3)C2=O)C(=O)N2CCSC21c1ccccc1,H37Rv,BACTEC,MIC bound,-,>12.5 µg/mL
CCCCC(CC)CN1CN(CC(CC)CCCC)CC(C)(NCCNCC2CCCO2)C1,-,-,MIC,-,12.5 µM
CC(=O)c1cc(C(C)=O)c(CC(=O)C(=O)Nc2ccc(Cl)cc2Cl)nc1CC(=O)C(=O)Nc1ccc(Cl)cc1Cl,H37Rv,BACTEC,MIC bound,-,>12.5 µg/mL
O=C1c2ccccc2C(=O)c2c(NCCO)cccc21,H37Rv,-,MIC,-,50 µg/mL
CO[C@@]12[C@H](COC(N)=O)C3=C(C(=O)C(C)=C(N)C3=O)N1C[C@H]1[C@@H]2N1C(=O)/C=C/c1ccccc1,H37Rv,-,MIC,-,0.2 µg/mL
O=C(/C=C/c1ccc(Cl)cc1)c1ccccc1O,H37Rv,-,EC50,-,<12.5 µg/mL
CC(C)c1ccc2c(c1)CC[C@H]1[C@](C)(CNCCNC3CCCCCCC3)CCC[C@]21C,-,-,MIC,-,25 µM
CC(=O)c1ccc2c(ccc3ccccc32)c1,H37Rv,-,MIC,-,50 µg/mL
CC1CCC2(OC1)OC1CC3C4CCC5CC(O)CCC5(C)C4C(O)CC3(C)C1C2C,H37Rv,BACTEC,inhibition,12.5 µg/mL,13%
C[N+](C)(C)CC(=O)NN.[Cl-],H37Rv,-,MIC,-,>100 µg/mL
COc1cc2cc[n+]3c(C)c4ccc(OC)c(OC)c4cc3c2cc1OC.O=C([O-])CS(=O)(=O)O,H37Rv,BACTEC,MIC,-,≥12.5 µg/mL
c1cc[n+](CCSCC[n+]2ccccc2)cc1,H37Rv,-,MIC,-,>100 µg/mL
O=c1cc(-c2cccc(-c3cccc4c(=O)cc(-c5ccccc5)oc34)c2)oc2ccccc12,H37Rv,-,EC50,-,~12.5 µg/mL
c1cc[c]([Pb]([c]2ccccc2)([c]2ccccc2)[c]2ccccc2)cc1,H37Rv,-,MIC,-,>100 µg/mL
Cc1cc(=O)oc2c(C)c3oc(CBr)c(Br)c3cc12,H37Rv,resazurin,MIC bound,-,>6.25 µg/mL
Clc1ccccc1CCNCCNCCNc1ccccc1,-,-,MIC,-,50 µM
O=C1C=C(Nc2ccc(Cl)cc2Cl)c2ccccc2C1=O,H37Rv,resazurin,MIC bound,-,>6.25 µg/mL
ClCCN1CCOCC1,H37Rv,-,MIC,-,>100 µg/mL
CSC(=S)N/N=C(\C)c1ccccn1,H37Rv,BACTEC,inhibition,128 µg/mL,100%
CNC(C(=O)c1ccccc1)C(Cl)c1ccccc1.Cl,H37Rv,-,MIC,-,50 µg/mL
CC(C)(C)SC(=S)SCC(=O)c1cc2cc(Br)ccc2o1,H37Rv,BACTEC,MIC bound,-,>12.5 µg/mL
CC(C)c1ccc2c(c1)CC[C@H]1[C@](C)(CNCCNC[C@@H]3CC[C@H]4C[C@@H]3C4(C)C)CCC[C@]21C,-,-,MIC,-,50 µM

Repeating the final 5 entries:

smiles,strain or isolate,read by,endpoint,dose,value
ClCCN1CCOCC1,H37Rv,-,MIC,-,>100 µg/mL
CSC(=S)N/N=C(\C)c1ccccn1,H37Rv,BACTEC,inhibition,128 µg/mL,100%
CNC(C(=O)c1ccccc1)C(Cl)c1ccccc1.Cl,H37Rv,-,MIC,-,50 µg/mL
CC(C)(C)SC(=S)SCC(=O)c1cc2cc(Br)ccc2o1,H37Rv,BACTEC,MIC bound,-,>12.5 µg/mL
CC(C)c1ccc2c(c1)CC[C@H]1[C@](C)(CNCCNC[C@@H]3CC[C@H]4C[C@@H]3C4(C)C)CCC[C@]21C,-,-,MIC,-,50 µM

Blank or dashed fields: not listed here. Neighbouring rows are from separate reports. MIC bound comes from a single tested concentration. Percent inhibition refers to the dose given; in toxicity tests it is the harm to the cells.